Measured values from several laboratories, pooled; numbers as filed in NIAID ChemDB.

All rows: growth or infection tests; species: HIV-1; method: RT activity; measure: EC50

Neighbouring rows are from separate reports. ECn is the concentration giving n% inhibition of infection, replication or growth. Two numbers with a dash give a range or band. An empty or dashed field is not shown.

SMILES	cell line	changes	strain or isolate	result
CCCCCCc1ccsc1-c1cn([C@@H]2C[C@H](OC(=O)c3ccc(C)cc3)[C@@H](COC(=O)c3ccc(C)cc3)O2)c(=O)[nH]c1=O	H9	-	IIIB	<1 µg/mL
Nc1nc(N)c2ncn([C@H]3C=C[C@@H](OCP(=O)(O)O)O3)c2n1	MT-4	-	IIIB	≥68.3 µg/mL
COCCNC(=O)[C@@H](NC(=O)[C@H](Cc1ccc(OC)c(OC)c1OC)C[C@H](O)[C@H](Cc1ccccc1)NC(=O)OC(C)(C)C)C(C)C	MT-2	-	MN	<0.03 µM
Cc1ccnc2c1NC(=O)c1cccnc1N2C1CC1	PBMC	-	Clinical isolate wild type	0.09 µM
O=c1[nH]c(=O)n([C@@H]2CS[C@@H](CO)O2)cc1F	PBMC	-	LAV	2.3 µM
CC(C)Nc1cccnc1N1CCN(C(=O)c2cc3cc(NS(C)(=O)=O)ccc3[nH]2)CC1	CBMC	-	HXB2D	0.026 µM
Nc1ccn([C@H]2CC[C@@H](CO)O2)c(=O)n1	PBL	-	IIIB	0.23 µM
C#C[C@]1(CO)O[C@@H](n2cnc3c(N)ncnc32)C=C1F	PBMC	-	LAV	25.1 µM
COc1nc(Cl)nc2c1ncn2[C@H]1C=C[C@@H](OCP(=O)(O)O)O1	MT-4	-	IIIB	>125 µg/mL
CCCCNP(=O)(OC[C@@H]1O[C@H](n2cc(C)c(=O)[nH]c2=O)C[C@H]1N=[N+]=[N-])OC[C@H]1O[C@@H](n2cc(C)c(=O)[nH]c2=O)C[C@@H]1N=[N+]=[N-]	CEM + CEM-SS	-	LAI	0.34 µM
Nc1nc(NC2CC2)c2ncn([C@H]3C=C[C@@H](CO)C3)c2n1	PBL	-	IIIB	3.7 µM
O=C(NCC#Cc1cn([C@H]2C=C[C@@H](CO)O2)c(=O)[nH]c1=O)C(F)(F)F	MT-4	-	IIIB	>100 µM
Nc1nc(=O)n([C@@H]2CS[C@@H](CO)O2)cc1Br	PBMC	-	LAV	100 µM
CO[C@H]1/C=C/O[C@@]2(C)Oc3c(C)c(O)c4c(O)c(c5c(c4c3C2=O)NC2(CCN(CC(C)C)CC2)N=5)=NC(=O)/C(C)=C\C=C\[C@H](C)[C@H](O)[C@@H](C)[C@@H](O)[C@@H](C)[C@H](OC(C)=O)[C@@H]1C	PBMC	-	-	<10 µg/mL
Nc1nc(=O)n([C@H]2CO[C@@H](CO)S2)cc1F	MT-4	RT-D67G	HxB2D(RT-D67G)	25 µM
Nc1ccn([C@H]2CC[C@@H](CO)O2)c(=O)n1	MT-4	-	RF	0.001 µM
Cc1cn([C@H]2C[C@H](N=[N+]=[N-])[C@@H](CO)O2)c(=O)[nH]c1=O	CEM + CEM-SS	-	LAI	0.014 µM
COc1nc(N)c2ncn([C@H]3C=C[C@@H](OCP(=O)(O)O)O3)c2n1	MT-4	-	IIIB	>125 µg/mL
Cc1cn([C@@H]2C[C@@H](N=[N+]=[N-])[C@H](CO)O2)c(=O)[nH]c1=O	PBMC	-	LAV	>100 µM
Nc1nc(=O)n([C@@H]2C[C@H](O)[C@@H](CO)O2)cc1-c1ccc[se]1	H9	-	IIIB	>10 µg/mL
CC(C)(C)NC(=O)[C@@H]1C[C@@H]2CCCC[C@@H]2CN1C[C@@H](O)[C@H](Cc1ccccc1)NC(=O)[C@H](CC(N)=O)NC(=O)c1ccc2ccccc2n1	HuT-78 + HUT 78	-	MVP-899	<0.02 µM
COC1CCC(OC2CC(C3OC(O)(CO)C(C)CC3C)OC2C2(C)CCC(C3(C)CCC4(CC(O)C(C)C(C(C)C5OC(O)(CC(=O)O)C(C)C(OC6CCC(OC)C(C)O6)C5OC)O4)O3)O2)OC1C	U-937	-	IIIB	3.7 µg/mL
C[C@H]1[C@H](O)[C@@H](C)/C=C/C=C/C=C/C=C/C=C/C=C/C=C/[C@H](O[C@@H]2O[C@H](C)[C@@H](O)[C@H](N)[C@@H]2O)C[C@@H]2O[C@](O)(C[C@@H](O)C[C@@H](O)CC[C@H](O)[C@@H](O)C[C@@H](O)CC(=O)O[C@H]1C)C[C@H](O)[C@H]2C(=O)O	H9	-	-	<5 µg/mL
C=Cc1c(C)c2cc3[nH]c(cc4nc(cc5nc(cc1[nH]2)C(C)=C5CCC(=O)O)C(CCC(=O)O)=C4C)c(C)c3C=C	PBMC	-	LAV	0.48–3.62 µM
C[C@]12CC[C@H](O)CC1=CC[C@@H]1[C@@H]2CC[C@]2(C)C(=O)CC[C@@H]12	MT-2	-	IIIB	50 µM
Nc1ccn([C@@H]2CS[C@H](CO)O2)c(=O)n1	MT-4	-	IIIB	0.51 µg/mL
Nc1ncnc2c1ncn2[C@@H]1CC[C@H](CO)O1	PBMC	-	LAV	8.2 µM
O=C(CCC(=O)N1CCN(CCNC(=S)Nc2ccc(Br)cn2)CC1)NCC(=O)OC[C@@H]1CC[C@H](n2ccc(=O)[nH]c2=O)O1	CEM + CEM-SS	-	LAI	>100 µM
CC[C@@]1([C@@H]2O[C@@H]([C@H]3O[C@@](O)(CO)[C@H](C)C[C@@H]3C)C[C@@H]2C)CC[C@H]([C@]2(C)CC[C@]3(C[C@H](O)[C@@H](C)[C@@H]([C@@H](C)[C@@H](OC)[C@H](C)C(=O)O)O3)O2)O1	H9	-	IIIB	4.22 µg/mL
Nc1nc(=O)n([C@@H]2CS[C@@H](CO)O2)cc1Cl	PBMC	-	LAV	100 µM
Cc1cn([C@H]2C[C@H](N=[N+]=[N-])[C@@H](CO)O2)c(=O)[nH]c1=O	CBMC	RT-M41L K70R T215Y	4242 (RT-M41L K70R T215Y)	0.007 µM
Nc1ccn([C@@H]2C[Se][C@H](CO)O2)c(=O)n1	PBMC	-	LAV	>100 µM
Nc1nc(=O)n([C@@H]2C[Se][C@H](CO)O2)cc1F	PBMC	RT-M184V	BRU(RT-M184V)	>50 µM
C[C@H](Cn1cnc2c(N)ncnc21)OCP(=O)(O)O	MT-2	-	LAI	0.016 µM
CC[C@]1(c2ccccc2)Oc2cccnc2-n2cccc2C1=O	PBMC	RT-M41L K103N T215Y	Resistant (MDR) isolate	3.4 µM
CCN(CC)C(=O)OCC1CN(C(=O)c2cc(OC)c(OC)c(OC)c2)CCN1C(=O)c1cc(OC)c(OC)c(OC)c1	PBL	-	LAI	5 µM
Cc1ccc(S(=O)(=O)N[C@@H](CCCCN)C(=O)CCl)cc1	MOLT-4	-	IIIB	10 µM
CC[C@@H]1O[C@@H]([C@]2(C)C[C@@H](C)[C@](O)([C@]3(C)CC[C@@H]([C@@H](O)[C@]4(O)O[C@H](C[C@@]5(O)O[C@@H]([C@@H](C)[C@H](O)C[C@@H]6O[C@H]([C@@H](C)C(=O)O)[C@@H](C)C[C@H]6C)CC[C@@H]5C)[C@@H](C)C[C@H]4C)O3)O2)CC[C@@]1(C)O	H9	-	IIIB	2.5 µg/mL
Nc1nc(=O)n([C@H]2C[C@H](O)[C@@H](CO)O2)cc1-c1ccco1	H9	-	IIIB	>10 µg/mL
Cc1cn([C@H]2C[C@H](N=[N+]=[N-])[C@@H](CO)O2)c(=O)[nH]c1=O	H9	-	-	<25 µg/mL
Cc1cn([C@H]2C=C[C@@H](COC(=O)CNC(=O)CCC(=O)N3CCN(CCNC(=S)Nc4ccc(Br)cn4)CC3)O2)c(=O)[nH]c1=O	MT-4	-	IIIB	0.49 µM
Cc1cn([C@H]2C[C@H](N=[N+]=[N-])[C@@H](CO)O2)c(=O)[nH]c1=O	MT-4	-	IIIB	0.0019 µg/mL
Cc1cn([C@H]2C[C@H](N=[N+]=[N-])[C@@H](COC(=O)OCCCCCCOC3O[C@H](CO)[C@@H](O)[C@H](O)[C@@H]3O)O2)c(=O)[nH]c1=O	CEM-113 + CEM/C113	-	-	>20 µg/mL
O=c1[nH]c(=O)n([C@H]2C=C[C@@H](CO)O2)cc1C#CCCO	CEM + CEM-SS	-	LAI	120 µM

Again, the opening 3 rows:

{"SMILES": "CCCCCCc1ccsc1-c1cn([C@@H]2C[C@H](OC(=O)c3ccc(C)cc3)[C@@H](COC(=O)c3ccc(C)cc3)O2)c(=O)[nH]c1=O", "cell line": "H9", "strain or isolate": "IIIB", "result": "<1 µg/mL"}
{"SMILES": "Nc1nc(N)c2ncn([C@H]3C=C[C@@H](OCP(=O)(O)O)O3)c2n1", "cell line": "MT-4", "strain or isolate": "IIIB", "result": "≥68.3 µg/mL"}
{"SMILES": "COCCNC(=O)[C@@H](NC(=O)[C@H](Cc1ccc(OC)c(OC)c1OC)C[C@H](O)[C@H](Cc1ccccc1)NC(=O)OC(C)(C)C)C(C)C", "cell line": "MT-2", "strain or isolate": "MN", "result": "<0.03 µM"}